Anti-infective test results gathered from many reports (values: NIAID ChemDB through PubChem).

Lines come from different laboratories, so protocols vary. MIC bound comes from a single tested concentration. Inhibition is in % at the dose shown (toxicity tests: loss of growth or viability). MIC50, MIC90 and the like: level of inhibition, or share of isolates inhibited. ICn is the concentration giving n% inhibition. An empty or dashed field is not shown.

smiles	test	agent	strain or isolate	target	read by	read-out	tested at	value
Cc1cc(N=Nc2ccc(N(C)C)cc2)ccn1	culture	Mycobacterium tuberculosis	H37Rv		resazurin	MIC bound		<6.25 µg/mL
Cc1ccccc1O	culture	Mycobacterium tuberculosis	H37Rv			MIC		>100 µg/mL
Cc1ccc(S(=O)(=O)NC(=O)NC(=S)c2cccs2)cc1	culture	Mycobacterium tuberculosis	H37Rv		resazurin	inhibition	6.25 µg/mL	-22%
NC(=O)NC(O)C(Cl)(Cl)Cl	culture	Mycobacterium tuberculosis	H37Rv			MIC		>100 µg/mL
COc1ccc(N2CCN(c3cncc(-c4ccsc4)n3)CC2)cc1OC	target	Cytomegalovirus		UL97 kinase		IC50		<10 µM
Fc1ccc(N2CCCCC2)c(NC(=S)c2ccncc2)c1	host protein			TrkA	kinase activity	inhibition	10 µM	38%
CC(=O)OC1C(OC(C)=O)C2C(C)CC3OC(=O)C(C)C3CC2(C)C1OC(C)=O	culture	Mycobacterium tuberculosis	H37Rv		BACTEC	inhibition	12.5 µg/mL	10%
Clc1cccc(N2CCN(c3cncc(-c4ccccc4Oc4ccccc4)n3)CC2)c1	target	Cytomegalovirus		UL97 kinase		IC50		<100 µM
Cn1cc(NC(=O)c2cc(NC(=O)CN=C(N)N)cn2C)cc1C(=O)NCCC(=N)N	culture	Mycobacterium tuberculosis	H37Rv		resazurin	MIC bound		<6.25 µg/mL
Nc1ccc(Cc2ccc(N)c(N)c2)c(N)c1	culture	Mycobacterium tuberculosis	H37Rv			MIC		>100 µg/mL
Cc1ccc(-c2cncc(N3CCN(c4ccccc4)CC3)n2)cc1	target	Cytomegalovirus		UL97 kinase		IC50		<10 µM
NC(CCCCNC(=O)c1ccccc1)C(=O)O	culture	Mycobacterium tuberculosis	H37Rv			MIC		50 µg/mL
Clc1cccc(N2CCN(c3cncc(-c4ccccc4)n3)CC2)c1	target	Cytomegalovirus		UL97 kinase		IC50		<10 µM
Cc1cccc(C(=O)O)c1	culture	Mycobacterium tuberculosis	H37Rv			MIC		>100 µg/mL
Clc1ccc(N2CCN(c3cncc(-c4ccoc4)n3)CC2)cc1	target	Cytomegalovirus		UL97 kinase		IC50		<100 µM
O=C(C[n+]1ccccc1)c1ccc(O)c(I)c1.[I-]	culture	Mycobacterium tuberculosis	H37Rv			MIC		25 µg/mL
COC(=O)C1C(OC(C)=O)C(C)C(O)C(C)(O)/C=C(\C)C2=C3C(=C(C)C(=O)c4c(O)c(c(C)c(OC(C)=O)c43)NC(=O)/C(C)=C/C=C\[C@](C)(O)C(O)[C@@H](C)C1O)OCO2	culture	Mycobacterium tuberculosis	H37Rv		BACTEC	MIC bound		≤12.8 µg/mL
c1ccc(-c2cncc(N3CCN(c4ccccn4)CC3)n2)cc1	target	Cytomegalovirus		UL97 kinase		inhibition	1 µM	<50%
O=C(Nc1ccc2[nH]c(=S)[nH]c2c1)c1cccc(S(=O)(=O)Nc2ccccc2)c1	culture	Mycobacterium tuberculosis	H37Rv			MIC		>100 µg/mL
OCc1ccc(-c2cncc(N3CCN(c4ccccc4)CC3)n2)cc1	target	Cytomegalovirus		UL97 kinase		IC50		<10 µM
COc1cc2cc[n+](C)c(Cc3ccc(Oc4cc(Cc5c6cc(OC)c(OC)cc6cc[n+]5C)ccc4OC)cc3)c2cc1OC.[Cl-].[Cl-]	culture	Mycobacterium tuberculosis	H37Rv		BACTEC	MIC bound		>12.5 µg/mL
CC(=O)c1ccc(N2CCN(c3cncc(-c4ccc(F)cc4)n3)CC2)cc1	target	Cytomegalovirus		UL97 kinase		inhibition	1 µM	<50%
COc1cccc2c1C(=O)c1c(O)c3c(c(O)c1C2=O)C[C@@](O)(C(=O)COC(=O)c1cccnc1)C[C@@H]3O[C@H]1C[C@H](N)[C@H](O)[C@H](C)O1	culture	Mycobacterium tuberculosis	H37Rv		BACTEC	inhibition	12.5 µg/mL	24%
Cc1ccc(O)c(O)c1	culture	Mycobacterium tuberculosis	H37Rv			MIC		>100 µg/mL
OC(c1cc(-c2ccc(Cl)cc2)nc2c(Cl)cccc12)C1CCCCN1	culture	Mycobacterium tuberculosis	H37Rv		resazurin	inhibition	6.25 µg/mL	100%
NCC(=O)NCC(=O)NCC(=O)NCC(=O)NCC(=O)O	culture	Mycobacterium tuberculosis	H37Rv			MIC		>100 µg/mL
CNC(=S)N/N=C(\C)CCc1c(C)nn(C(=S)NC)c1C	culture	Mycobacterium tuberculosis	H37Rv			MIC bound		>6.25 µg/mL
C=CCc1ccc(O)c(OC)c1	culture	Candida glabrata	3080		turbidity	MIC90		500 µg/mL
COc1ccc(C(O)/C(=C/n2ccnc2)c2ccccc2)cc1OC	culture	Mycobacterium tuberculosis	H37Rv		resazurin	inhibition	6.25 µg/mL	6%
CN(C)c1ccc(O)cc1.O=S(=O)(O)O	culture	Mycobacterium tuberculosis	H37Rv			MIC		>100 µg/mL